Record: PubChem BioAssay AID1259414 (Drosophila RNAi Screening Center, 2018)
Assay: 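Fly genes that alter Wolbachia amount inside host cells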 (primary screen). Cell system: Drosophila JW18 cells infected with Wolbachia. Reagent: long dsRNA against Drosophila genes, 0.25 µg dsRNA per well of a 384-well plate. Time to read-out: 5 days. Treatment: cells persistently infected with Wolbachia before knock-down; no added drug. Detection: 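Imaged fluorescence in situ signal for Wolbachia 23S rRNA per DAPI-counted host cell, given as a robust z-score within each plate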. Reading the numbers: Wolbachia per cell robust z: higher = more Wolbachia per host cell than the plate typical. Active means: 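Hit when robust z is 1.5 or more, or -1.5 or less, in at least two of three replicates; excludes dsRNAs with several or no targets, genes not expressed in JW18 and well A1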.
The deposit covers about 24,000 reagents; this is a random part of those that have a named target and a result. Over the whole deposit, about 1,210 (5%) got an active call. 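Inactive calls also include excluded dsRNAs with several or no targets, genes unexpressed in JW18, and well A1, regardless of score.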 The numbers tell different reagents against one gene apart. A plus sign joins genes that one reagent is predicted to hit.

no.	Target gene	reagent	Wolbachia per cell robust z, rep 1	Wolbachia per cell robust z, rep 2	Wolbachia per cell robust z, rep 3	outcome
1	thoc5	1	0.0839	-0.145	-1.96	inactive
2	PolD2	1	-0.125	-0.0918	-0.14	inactive
3	ple	1	-0.426	0.193	-1.37	inactive
4	Vha55	1	-0.414	-0.556	0.348	inactive
5	Vha55	2	-0.341	-1.04	-2.58	inactive
6	emp	1	0.311	0.179	-0.107	inactive
7	emp	2	-1.16	0.88	0.821	inactive
8	CG44245 + Gyg	1	-8.72	-0.704	0.327	inactive
9	CG44245 + Gyg	2	0.0016	-1.66	-2.23	inactive
10	CG44245 + Gyg	3	0.116	-0.42	-3.44	inactive
11	CG9877	1	0.989	1.09	-0.688	inactive
12	CG9877	2	0.734	1.19	-1.26	inactive
13	bam	1	0.124	0.587	-0.39	inactive
14	bam	2	-0.992	0.218	-2.73	inactive
15	Pih1D1	1	-3.41	-0.125	-4.53	active
16	Pih1D1	2	0.592	1.42	0.998	inactive
17	hbs	1	-1.38	0.122	0.323	inactive
18	CG5412	1	-0.608	0.337	-0.647	inactive
19	Jhbp15	1	-2.32	-0.461	0.284	inactive
20	Adat1	1	-0.434	0.0663	-4.63	inactive
21	Adat1	2	0.409	-0.158	-0.0265	inactive
22	CG1674	1	0.244	0.079	0.424	inactive
23	CG1674	2	-0.192	-5.35	0.958	inactive
24	CG5504	1	0.791	-1.72	0.56	inactive
25	Zip89B	1	-0.078	-0.159	-0.234	inactive
26	Zip89B	2	-1.33	-3.02	-0.163	inactive
27	CG5500	1	0.795	0.554	0.535	inactive
28	CG5500	2	-0.0532	0.641	0.643	inactive
29	AANATL2	1	-0.138	-3.69	0.597	inactive
30	AANATL2	2	-0.71	-0.809	-0.829	inactive
31	Or74a	1	-3.35	-0.875	-0.687	inactive
32	osi	1	-6.7	-3.58	-0.252	inactive
33	Tes	1	0.374	-0.161	-0.288	inactive
34	CG34196	1	-5.02	-3.41	-1.2	inactive
35	Ir10a	1	-1.83	-1.84	0.677	inactive
36	Ir10a	2	-3.21	0.72	-0.935	inactive
37	Ir10a	3	-1.24	0.317	-3.21	inactive
38	Ccp84Ab	1	0.267	-0.00176	0.291	inactive
39	Ccp84Ab	2	-0.26	0.172	0.21	inactive
40	Schip1	1	-5.35	0.127	0.376	inactive
41	Schip1	2	0.715	-0.154	0.938	inactive
42	CG4375	1	-3.44	-2.03	-0.00656	inactive
43	CG4375	2	-0.165	0.533	-11.1	inactive
44	DCX-EMAP	1	-0.207	-1.62	-1.2	inactive
45	DCX-EMAP	2	-0.115	-0.664	-0.904	inactive
46	DCX-EMAP	3	-0.84	-1.24	-2.35	inactive
47	CG31269	1	0.199	0.606	1.43	inactive
48	CG31269	2	-0.667	-2.61	-1.04	inactive
49	CG32191	1	0.755	1.06	0.207	inactive
50	IFT20 + CG10395	1	0.5	0.454	-0.808	inactive
51	CG43050	1	-0.734	-0.458	-0.831	inactive
52	Skel	1	-0.449	0.0856	0.114	inactive
53	Skel	2	0.642	0.288	0.263	inactive
54	CG1136	1	0.695	-0.686	-1.08	inactive
55	CR41454	1	0.15	0.337	-0.133	inactive
56	ppan	1	-0.356	-0.778	-0.284	inactive
57	ppan	2	0.282	0.332	0.399	inactive
58	apn	1	1.03	-0.281	0.778	inactive
59	Adss	1	0.53	-0.371	-1.31	inactive
60	Adss	2	0.479	0.395	-0.852	inactive
61	tkv	1	0.194	-0.605	0.0532	inactive
62	tkv	2	-1.24	0.149	0.531	inactive
63	tkv	3	-1.15	-1.37	-1.1	inactive
64	CG10353	1	-0.885	-0.414	0.213	inactive
65	CG10353	2	0.243	0.678	-0.0772	inactive
66	Ser7	1	0.505	-0.883	0.623	inactive
67	SmydA-6	1	0.266	0.658	0.134	inactive
68	Rad23	1	-0.623	0.383	-0.24	inactive
